Assay results: patent US8084602B2, “Porphyrin derivatives and their use in photodynamic therapy” (Destiny Pharma Limited, priority 2002, dated 2011)

Experiments:
E. coli cells = assay: Binding of compounds with bacterial cells; type: cell-based; conditions: 5 min incubation
[1] = tested on: human dermal fibroblasts (NHDF); assay: Sub-cellular distribution, fluorescence microscopy; type: cell-based; conditions: 1 μM, 1 hour

With `C[N+](C)(C)CCCOc1ccc(-c2c3nc(cc4ccc([nH]4)c(-c4ccc(OCCC[N+](C)(C)C)cc4)c4nc(cc5ccc2[nH]5)C=C4)C=C3)cc1.[Cl-].[Cl-]` [Compound 10, 5,15-bis-[4-(3-Trimethylammonio-propyloxy)-phenyl]-porphyrin dichloride] the “Bound compound (nmoles/mg cell proteins)” value (E. coli cells; 0.01 μM, 0 washings) was 0.026 ± 0.005 nmoles/mg cell proteins, the “Bound compound (nmoles/mg cell proteins)” value (E. coli cells; 0.01 μM, 3 washings) was 0.015 ± 0.0004 nmoles/mg cell proteins and the “Bound compound (nmoles/mg cell proteins)” value (E. coli cells; 0.1 μM, 0 washings) was 0.274 ± 0.05 nmoles/mg cell proteins. For the same molecule, the “Bound compound (nmoles/mg cell proteins)” value (E. coli cells; 0.1 μM, 3 washings) was 0.078 ± 0.02 nmoles/mg cell proteins, the “Bound compound (nmoles/mg cell proteins)” value (E. coli cells; 0.5 μM, 0 washings) was 1.542 ± 0.350 nmoles/mg cell proteins and the “Bound compound (nmoles/mg cell proteins)” value (E. coli cells; 0.5 μM, 3 washings) was 0.334 ± 0.092 nmoles/mg cell proteins. For the same molecule, the “Bound compound (nmoles/mg cell proteins)” value (E. coli cells; 1 μM, 0 washings) was 2.70 ± 0.354 nmoles/mg cell proteins, the “Bound compound (nmoles/mg cell proteins)” value (E. coli cells; 1 μM, 3 washings) was 1.278 ± 0.102 nmoles/mg cell proteins and the “co-staining with lysosomal-specific dye (LysoTrackerGreen)” value [1] was “different localization of Compound 10 and lysosomal fluorescence”. The “co-staining with mitochondria-specific Rhodamine G6” value [1] was “co-localisation of Compound 10 and fluorescence of mitochondria” and the “sub-cellular localisation relative to nucleus” value ([1]; Hoechst 33342 co-stain) was “localised extra-nuclearly”.

With `C[N+](C)(C)CCCOc1cccc(-c2c3nc(cc4ccc([nH]4)c(-c4cccc(OCCC[N+](C)(C)C)c4)c4nc(cc5ccc2[nH]5)C=C4)C=C3)c1.[Cl-].[Cl-]` [Compound 12, 5,15-bis-[3-(3-trimethylammonio-propyloxy)-phenyl]-porphyrin dichloride] the “Bound compound (nmoles/mg cell proteins)” value (E. coli cells; 0.01 μM, 0 washings) was 0.041 ± 0.02 nmoles/mg cell proteins, the “Bound compound (nmoles/mg cell proteins)” value (E. coli cells; 0.01 μM, 3 washings) was 0.021 ± 0.005 nmoles/mg cell proteins and the “Bound compound (nmoles/mg cell proteins)” value (E. coli cells; 0.1 μM, 0 washings) was 0.151 ± 0.02 nmoles/mg cell proteins. For the same molecule, the “Bound compound (nmoles/mg cell proteins)” value (E. coli cells; 0.1 μM, 3 washings) was 0.089 ± 0.02 nmoles/mg cell proteins, the “Bound compound (nmoles/mg cell proteins)” value (E. coli cells; 0.5 μM, 0 washings) was 0.806 ± 0.14 nmoles/mg cell proteins and the “Bound compound (nmoles/mg cell proteins)” value (E. coli cells; 0.5 μM, 3 washings) was 0.622 ± 0.10 nmoles/mg cell proteins. For the same molecule, the “Bound compound (nmoles/mg cell proteins)” value (E. coli cells; 1 μM, 0 washings) was 2.70 ± 0.30 nmoles/mg cell proteins and the “Bound compound (nmoles/mg cell proteins)” value (E. coli cells; 1 μM, 3 washings) was 1.930 ± 0.20 nmoles/mg cell proteins.
